Data from BindingDB's records for 15755666.

Biological target: Neuraminidase (Influenza A virus (strain A/Tern/Australia/G70C/1975 H11N9), UniProt P03472)
Test: ASSAY_NAME: Neuraminidase Inhibition Assay DESCRIPTION: A standard fluorimetric assay was used to measure influenza virus neuraminidase activity. The substrate 2 -(4-methylumbelliferyl)-alpha-D-acetylneuraminic acid is cleaved by neuraminidase to yield a fluorescent product that can be quantified. Fluorescence was read using an Aminco-Bowman fluorescence spectrophotometer (excitation, 360 nm; emis
Conditions: pH 6.5

SMILES | IC50 [µM]
CC(=O)Nc1ccc(C(=O)O)nc1N=C(N)N | 6
CC(=O)Nc1cnc(C(=O)O)cc1N | 70
CC(=O)Nc1c(CCO)cc(C(=O)O)cc1N=C(N)N | 400
CC(=O)Nc1ccc(C(=O)O)nc1 | 2000
CCC(CC)Oc1c(N=C(N)N)cc(C(=O)O)cc1N=C(N)N | 3
CS(=O)(=O)Nc1ccc(C(=O)O)nc1 | 3000
CC(=O)Nc1c(N=C(N)N)cc(C(=O)O)cc1C(O)C(O)CO (centres undefined) | > 100
CS(=O)(=O)Nc1c(N)cc(C(=O)O)nc1N | 1000
CC(=O)Nc1ccc(C(=O)O)nc1N | 3000
CC(=O)Nc1c(N)cc(C(=O)O)nc1N=C(N)N | 4
CS(=O)(=O)Nc1c(CN=O)cc(C(=O)O)cc1N=C(N)N | 80
CS(=O)(=O)Nc1c(CO)cc(C(=O)O)cc1N=C(N)N | 2000
CC(=S)Nc1ccc(C(=O)O)nc1 | 400
CC(=O)Nc1c(N=C(N)N)cc(C(=O)O)cc1N=C(N)N | 10
